From US5227487A, “Certain tricyclic and pentacyclic-hetero nitrogen rhodol dyes” (Molecular Probes, Inc., priority 1990, dated 1993)
Some compounds share one wording; it may come from a single statement.

Experiment: Chemical reactivity of rhodol dyes with model compounds

SMILES | reaction with bovine serum albumin, alphabungarotoxin and phallacidin
O=C(ON1C(=O)CCC1=O)c1ccc(C(=O)O)c(-c2c3cc(Cl)c(=O)cc-3oc3c4c5c(cc23)CCCN5CCC4)c1 [Compound 29] | fluorescent peptide or protein conjugates
O=C1CCc2cc3c(cc2O1)Oc1c(cc2c4c1CCCN4CCC2)C31OC(=O)c2ccccc21 (centres unmarked) [Compound 63] | fluorescent peptide or protein conjugates
